A mixed list of measured activities; the numbers were collected in NIAID ChemDB.

Common to all: enzyme or target tests; organism: HIV-1; protein: Integrase; measure: IC50

Blank or dashed fields: not listed here. Rows are shuffled and stem from different studies. ICn: concentration for n% inhibition.

compound | method | strain | conditions | value
O=c1ccc(-c2cccc(C(F)(F)F)c2)c(O)c(O)c1O | strand transfer |  |  | 7.1 µM
CCOP(=O)(CCNC(=O)c1c(O)c2ncc(Cc3ccc(F)cc3)cc2n(-c2ccc(F)cc2)c1=O)OCC | strand transfer |  |  | <0.1 µM
Nc1c(Br)cc2c([nH]c(=O)c3cc(Br)ccc32)c1Br | 3′ processing |  | Mg2+ | 187 µM
O=c1oc2ccccc2c(O)c1C(c1ccc(OCCO)cc1)c1c(O)c2ccccc2oc1=O | 3′ processing |  |  | >100 µM
CC(=O)Oc1cc(OC(C)=O)c(OC(C)=O)c(=O)c(OC(C)=O)c1 | strand transfer |  |  | 62 µM
O=C(OCC1OCOC(COC(=O)c2ccccc2)C(O)C1O)c1ccccc1 | 3′ processing |  | Mn2+ | >200 µM
COc1ccc(/C(O)=C/C(=O)C(=O)O)cc1OC | 3′ processing |  |  | >100 µM
CS(=O)(=O)Oc1ccc(C(c2c(O)c3ccccc3oc2=O)c2c(O)c3ccccc3oc2=O)cc1 | 3′ processing |  |  | 23.7 µM
CC(=O)c1cccn1Cc1ccc(F)cc1 | strand transfer |  |  | >100 µM
CCOP(=O)(CNC(=O)c1c(O)c2ncc(Cc3ccc(F)cc3)cc2n(CCN2CCCC2=O)c1=O)OCC | strand transfer |  |  | <0.1 µM
COc1ccccc(-c2cncnc2)c1=O | strand transfer |  |  | >1000 µM
O=C(O)c1cc2ccccc2c(N=Nc2ccc(S(=O)(=O)Nc3nccs3)cc2)c1O | 3′ processing |  | Mg2+ | 19 µM
COc1cc(/C=C/C(=O)Oc2c(-c3ccc(Cl)cc3)oc3ccccc3c2=O)ccc1OC(C)=O | 3′ processing |  |  | >100 µM
CCCCOC(=O)C(=O)CC(=O)c1cccn1Cc1ccc(F)cc1 | binding |  |  | 0.295 µM
O=[N+]([O-])c1ccccc1S(=O)(=O)c1ccc(Cl)cc1 | 3′ processing |  |  | >100 µM
CCOP(=O)(CCNC(=O)c1c(O)c2ncc(Cc3ccc(F)cc3)cc2[nH]c1=O)OCC | strand transfer |  |  | <0.1 µM
COc1ccc(S(=O)(=O)Oc2ccc(C(c3c(O)c4ccccc4oc3=O)c3c(O)c4ccccc4oc3=O)cc2)cc1 | 3′ processing |  |  | 1.9 µM
COC(=O)[C@H](COC(=O)/C=C/c1ccc(OC(C)=O)c(OC(C)=O)c1)NC(=O)/C=C/c1ccc(OC(C)=O)c(OC(C)=O)c1 | strand transfer |  |  | <5 µM
O=C(O)C(=O)/C=C(\O)c1ccc2cc(O)c(O)cc2c1 | strand transfer |  |  | >0.9 µM
O=C(O)C(=O)CC(=O)c1cccn1CCCc1ccccc1 | strand transfer |  |  | 0.5 µM
Cc1ccc(S(=O)(=O)Oc2ccc(C(c3c(O)c4ccccc4oc3=O)c3c(O)c4ccccc4oc3=O)cc2)cc1 | 3′ processing |  |  | 3.9 µM
COc1cc(C(=O)Oc2c(-c3ccc(Cl)cc3)oc3ccccc3c2=O)ccc1O | 3′ processing |  |  | >100 µM
CN(C)[C@@H]1C(=O)C(C(N)=O)=C(O)[C@@]2(O)C(=O)C3=C(O)c4c(O)cccc4[C@@](C)(O)[C@H]3[C@H](O)[C@@H]12 | 3′ processing |  | Mn2+ | >200 µM
Cc1ccc(Cl)c(Cc2ccc3c(c2)c(=O)c(C(=O)O)cn3CCO)c1 | ELISA |  |  | 0.13 µM
O=c1c2[nH]cc[nH]c2c(=O)c2c(=O)n(Cc3cc(Cl)cc(Cl)c3)c(=O)c12 | strand transfer |  |  | 0.427 µM
O=C(O)C(=O)/C=C(\O)c1ccc(O)c(O)c1 | strand transfer |  |  | 1.1 µM
O=C(O)c1ccc(S(=O)(=O)c2ccc(C(=O)O)c([N+](=O)[O-])c2)cc1[N+](=O)[O-] | strand transfer |  |  | 83 µM
Cc1cc(S(=O)(=O)Nc2nc3cscc3c(=O)[nH]2)c(SCc2ccccc2)cc1Cl | strand transfer |  |  | 55 µM
N#CC(C#N)=NNc1ccc(S(=O)(=O)c2ccc(NN=C(C#N)C#N)cc2)cc1 | 3′ processing |  |  | 25.9 µM
O=c1c(O)c(-c2ccc(O)c(O)c2)oc2cc(O)c(O)c(O)c12 | substrate cleavage |  |  | 0.8 µM
COc1ccc(C(=O)Oc2ccc(C(c3c(O)c4ccccc4oc3=O)c3c(O)c4ccccc4oc3=O)cc2)cc1 | 3′ processing |  |  | 3.1 µM
COc1cc(C(=O)Oc2c(-c3ccc(Cl)cc3)oc3ccccc3c2=O)cc(OC)c1OC(C)=O | 3′ processing |  |  | >100 µM
O=C(NCCCl)Nc1ccc(S(=O)(=O)c2ccc([N+](=O)[O-])cc2)cc1 | 3′ processing |  |  | >100 µM
CCOP(=O)(O)CCCCNC(=O)c1c(O)c2ncc(Cc3ccc(F)cc3)cc2n(C)c1=O | strand transfer |  |  | <0.1 µM
O=C(Oc1ccc(C(c2c(O)c3ccccc3oc2=O)c2c(O)c3ccccc3oc2=O)cc1)c1ccccc1 | 3′ processing |  |  | 2.6 µM
COC(=O)[C@@H](Cc1ccc(O)c(O)c1)OC(=O)/C=C/c1ccc(O)c(O)c1/C=C/c1ccc(O)c(O)c1 | ELISA |  |  | 7.58 µg/mL
Cn1c(=O)c(C(=O)NCP(=O)(O)O)c(O)c2ncc(Cc3ccc(F)cc3)cc21 | strand transfer |  |  | <0.1 µM
Cc1cc(=O)[nH]c2c(OCOc3cccc4c(C)cc(=O)[nH]c34)cccc12 | 3′ processing |  | Mg2+ | >200 µM
COc1ccccc1/C(O)=C/C(=O)C(=O)O | 3′ processing |  |  | >100 µM
O=C=Nc1cc(S(=O)(=O)c2ccc(Cl)c(N=C=O)c2)ccc1Cl | 3′ processing |  |  | 100 µM
O=C(/C=C/c1ccc(O)c(O)c1)Oc1c(-c2ccc(Cl)cc2)oc2ccccc2c1=O | 3′ processing |  |  | 75 µM
O=c1ccccc(-c2cncnc2)c1O | strand transfer |  |  | >1000 µM
O=C(Oc1c(-c2ccc(Cl)c(Cl)c2)oc2ccccc2c1=O)c1cc(OCc2ccccc2)c(OCc2ccccc2)c(OCc2ccccc2)c1 | 3′ processing |  |  | >100 µM
Nc1ccn(C2C[C@H](O)[C@@H](COP(=O)(O)O[C@H]3[C@H](n4cnc5c(N)ncnc54)CO[C@@H]3COP(=O)(O)O)O2)c(=O)n1 | 3′ processing |  |  | 19 µM
C[C@@H]1O[C@@H](Oc2c(-c3cc(O)c(O)c(O)c3)oc3cc(O)cc(O)c3c2=O)[C@H](O)[C@H](O)[C@H]1O | substrate cleavage |  |  | 39.6 µM
O=S(=O)(SC(Cl)(Cl)Cl)c1cccc(S(=O)(=O)c2cccc(S(=O)(=O)SC(Cl)(Cl)Cl)c2)c1 | disintegration |  |  | 28 µM
CCOP(=O)(CCCCNC(=O)c1c(O)c2ncc(Cc3ccc(F)cc3)cc2n(C)c1=O)OCC | strand transfer |  |  | <0.1 µM
O=C(/C=C/c1ccc(O)c2c1[C@H](C(=O)O)[C@H](c1ccc(O)c(O)c1)O2)O[C@H](Cc1ccc(O)c(O)c1)C(=O)O | ELISA |  |  | 5.25 µg/mL
O=c1oc2ccccc2c(O)c1C(c1ccc(C(c2c(O)c3ccccc3oc2=O)c2c(O)c3ccccc3oc2=O)cc1)c1c(O)c2ccccc2oc1=O | 3′ processing |  |  | 1.1 µM
COC(=O)C(=O)OC1(C(=O)O)C[C@@H](OC(=O)/C=C/c2ccc(O)c(O)c2)C(O)[C@H](OC(=O)/C=C/c2ccc(O)c(O)c2)C1 | disintegration | NL4-3 |  | 0.8 µM
O=c1oc2ccccc2c(O)c1C(c1ccccc1)c1c(O)c2ccccc2oc1=O | 3′ processing |  |  | 43 µM
O=C(/C=C/c1ccc(O)c2c1[C@H](C(=O)O)[C@@H](c1ccc(O)c(O)c1)O2)O[C@H](Cc1ccc(O)c(O)c1)C(=O)O | ELISA |  |  | 17.87 µg/mL

Again, the opening 5 rows:

compound	method	strain	conditions	value
O=c1ccc(-c2cccc(C(F)(F)F)c2)c(O)c(O)c1O	strand transfer			7.1 µM
CCOP(=O)(CCNC(=O)c1c(O)c2ncc(Cc3ccc(F)cc3)cc2n(-c2ccc(F)cc2)c1=O)OCC	strand transfer			<0.1 µM
Nc1c(Br)cc2c([nH]c(=O)c3cc(Br)ccc32)c1Br	3′ processing		Mg2+	187 µM
O=c1oc2ccccc2c(O)c1C(c1ccc(OCCO)cc1)c1c(O)c2ccccc2oc1=O	3′ processing			>100 µM
CC(=O)Oc1cc(OC(C)=O)c(OC(C)=O)c(=O)c(OC(C)=O)c1	strand transfer			62 µM